The values that follow come from article PMC7971878, “ADAM17 is an essential attachment factor for classical swine fever virus” (2021).

The experiment addresses pig ADAM17 (a disintegrin and metalloproteinase 17), endogenous in PK15 cells (pig (endogenous in PK15)) (UniProt O77636). Put plainly: flow cytometry on cells. A general note: Flow cytometry measures light scatter and fluorescence of single cells or particles in a stream.

As for “CSFV E2 extracellular domain fused with Fc tag at the C-terminus (sE2-Fc) (Fc fusion)”, the percent decrease of binding with 25 mM 1,10-phenanthroline amounted to 74%.
